Experimental data: PubChem BioAssay AID1259414 (Drosophila RNAi Screening Center, 2018)

Purpose: 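Genome-wide screen for host control of endosymbiont load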 (primary screen)
Cells: Drosophila JW18 cells infected with Wolbachia
Knock-down reagent: long dsRNA against Drosophila genes, 0.25 µg dsRNA per well of a 384-well plate
Timing: 5 days
Challenge: cells persistently infected with Wolbachia before knock-down; no added drug
Read-out: 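Automated imaging of bacterial rRNA staining divided by host cell count, reported as plate-normalised robust z-score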
Reading the numbers: Wolbachia per cell robust z: higher = more Wolbachia per host cell than the plate typical
Rule for the call: 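Hit when robust z is 1.5 or more, or -1.5 or less, in at least two of three replicates; excludes dsRNAs with several or no targets, genes not expressed in JW18 and well A1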
In all, the deposit lists about 24,000 reagents; below is an unselected part of those that have a named target and a result. Of all reagents, about 1,210 (5%) are marked active. 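Inactive calls also include excluded dsRNAs with several or no targets, genes unexpressed in JW18, and well A1, regardless of score.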 Entries without a mark were called inactive. The numbers tell different reagents against one gene apart. Names joined by + are all predicted targets of the reagent. Reagent sequences are not shown.

Gmppb → Wolbachia per cell robust z, rep 1: 0.463; Wolbachia per cell robust z, rep 2: -2.83; Wolbachia per cell robust z, rep 3: 0.56
Nup35 → Wolbachia per cell robust z, rep 1: -5.34; Wolbachia per cell robust z, rep 2: 0.0657; Wolbachia per cell robust z, rep 3: 1.56
Epg5 → Wolbachia per cell robust z, rep 1: -5.23 (active); Wolbachia per cell robust z, rep 2: 1.63; Wolbachia per cell robust z, rep 3: -2.79
l(1)G0196 + lncRNA:CR43493 → Wolbachia per cell robust z, rep 1: -0.237; Wolbachia per cell robust z, rep 2: -0.177; Wolbachia per cell robust z, rep 3: 0.817
Nelf-A → Wolbachia per cell robust z, rep 1: -1.12; Wolbachia per cell robust z, rep 2: -0.0637; Wolbachia per cell robust z, rep 3: 0.752
Acbp2 #1 → Wolbachia per cell robust z, rep 1: -1.14; Wolbachia per cell robust z, rep 2: -1.13; Wolbachia per cell robust z, rep 3: -0.643
Acbp2 #2 → Wolbachia per cell robust z, rep 1: -0.392; Wolbachia per cell robust z, rep 2: -0.27; Wolbachia per cell robust z, rep 3: 0.391
CR43670 + CR43669 + CR43671 → Wolbachia per cell robust z, rep 1: 1.12; Wolbachia per cell robust z, rep 2: -0.75; Wolbachia per cell robust z, rep 3: -0.461
resilin #1 → Wolbachia per cell robust z, rep 1: 0.00248; Wolbachia per cell robust z, rep 2: 0.0247; Wolbachia per cell robust z, rep 3: -0.184
resilin #2 → Wolbachia per cell robust z, rep 1: 1.06; Wolbachia per cell robust z, rep 2: 1.74; Wolbachia per cell robust z, rep 3: 1.35
Invadolysin → Wolbachia per cell robust z, rep 1: -0.125; Wolbachia per cell robust z, rep 2: -0.321; Wolbachia per cell robust z, rep 3: 0.141
CG32202 → Wolbachia per cell robust z, rep 1: 0.934; Wolbachia per cell robust z, rep 2: 0.41; Wolbachia per cell robust z, rep 3: 0.954
Dph5 #1 → Wolbachia per cell robust z, rep 1: -0.766; Wolbachia per cell robust z, rep 2: 1.81; Wolbachia per cell robust z, rep 3: -0.352
Dph5 #2 → Wolbachia per cell robust z, rep 1: -1.5; Wolbachia per cell robust z, rep 2: 0.423; Wolbachia per cell robust z, rep 3: -0.528
CG30265 + CG12490 → Wolbachia per cell robust z, rep 1: 0.489; Wolbachia per cell robust z, rep 2: 0.556; Wolbachia per cell robust z, rep 3: -0.0873
CG7742 → Wolbachia per cell robust z, rep 1: 0.228; Wolbachia per cell robust z, rep 2: 0.153; Wolbachia per cell robust z, rep 3: 0.221
Indy-2 + CG33934 #1 → Wolbachia per cell robust z, rep 1: 0.682; Wolbachia per cell robust z, rep 2: 1; Wolbachia per cell robust z, rep 3: 0.487
Indy-2 + CG33934 #2 → Wolbachia per cell robust z, rep 1: -0.115; Wolbachia per cell robust z, rep 2: 0.562; Wolbachia per cell robust z, rep 3: -0.539
CG12481 → Wolbachia per cell robust z, rep 1: -1.26; Wolbachia per cell robust z, rep 2: 0.529; Wolbachia per cell robust z, rep 3: 0.318
CG17821 → Wolbachia per cell robust z, rep 1: -0.703; Wolbachia per cell robust z, rep 2: -0.109; Wolbachia per cell robust z, rep 3: -1.84
ICA69 → Wolbachia per cell robust z, rep 1: 0.299; Wolbachia per cell robust z, rep 2: -0.564; Wolbachia per cell robust z, rep 3: 0.436
CG4332 → Wolbachia per cell robust z, rep 1: -0.134; Wolbachia per cell robust z, rep 2: 0.933; Wolbachia per cell robust z, rep 3: -5.92
mesh #1 → Wolbachia per cell robust z, rep 1: 0.693; Wolbachia per cell robust z, rep 2: 0.317; Wolbachia per cell robust z, rep 3: 0.557
mesh #2 → Wolbachia per cell robust z, rep 1: -5.6; Wolbachia per cell robust z, rep 2: -0.43; Wolbachia per cell robust z, rep 3: 0.325
mesh #3 → Wolbachia per cell robust z, rep 1: 0.254; Wolbachia per cell robust z, rep 2: 0.335; Wolbachia per cell robust z, rep 3: 0.105

Reformatted: entries from further up.
target	reagent no.	Wolbachia per cell robust z, rep 1	Wolbachia per cell robust z, rep 2	Wolbachia per cell robust z, rep 3
Indy-2 + CG33934	2	-0.115	0.562	-0.539
CG12481	1	-1.26	0.529	0.318
CG17821	1	-0.703	-0.109	-1.84
ICA69	1	0.299	-0.564	0.436
